Data: ChEMBL document CHEMBL4495565, “Cytopathic SARS-Cov2 screening on VERO-E6 cells in a large repurposing effort” (2020)
Where “and” joins values, the source holds several entries; their conditions need not be identical. Equal values may be shown once.

Test system: SARS-CoV-2
Details: Chlorocebus sabaeus; Vero C1008; 10 uM

In the case of COLISTIN SULFATE, the inhibition is reported as 0.01% (2×) and 0.08% (2×).
